Source: patent US20230181714A1 (VANDERBILT UNIVERSITY, published 2023)

Tests used:
Experiment in all cases: cell-based or functional assay
[1] = biological target: SINV/VEEV (IAB: Trinidad Donkey strain) (Venezuelan equine encephalitis virus …, UniProt P09592 335-757; P09592 813-1254)
SINV/VEEV (IC: INH9831) = SINV/VEEV (IC: INH9831) (Venezuelan equine encephalitis virus …)
[2] = biological target: SINV/VEEV (IAB: TC-83 strain) (Venezuelan equine encephalitis virus …, UniProt P05674 335-757; P05674 813-1254)

Measured: IC50 of neutralization (FRNT)

B1: VEE-63 (antibody, V domains shown)
VH: QVQLVQSGAEVKKPGASVKVSCKSSGYTFTNYIIHWVRQAPGQRLEWMGWINAGNGNTKYSQKFQGRISVTRDTSASAAYMELSSLKSEDTALYYCATLQMDYGGNGDLDYWGQGTLVTVSS
VL: SYELTQPPSVSVSPGQTARITCSGDALPKQYVYWYQQKPGQAPVLVIYKDSERPSGIPERFSGSSSGTTVTLTISGVQAEDDADYYCQAADSSNTEYVFGTGTKVTVL
< 2 ng/mL: all assays above
